Assay results from patent publication US3997543A (priority 1974, dated 1976).

Test system: guinea pig ileum
Test: ACh-like (muscarinic) activity on isolated guinea pig ileum
Assay type: cell-based
Settings: relative to acetylcholine = 1

CC(=O)OC1C[N+]2(C)CCC1CC2 (racemic)
EPMR (Equipotent molar ratio): > 1000
